Two substances from patent US20160228506A1, “Compositions and Formulations for Prevention and Reduction of Tumorigenesis, Cancer Cell Proliferation and Invasion, and Methods of Production and Use Thereof in Cancer Treatment” (PRONUTRIA, INC., priority 2013, published 2016) can be followed below.

The series in a line: Anti-FLAG ELISA of protein secretion in Aspergillus niger. Particulars: for ELISA 10 ml shake flask: 10 ml minimal medium, three days; for ELISA 1st MTP: primary transformants, 96 deep well, 72 hrs, culture supernatant; for ELISA 2nd MTP: retest after single spore purification. Background: ELISA stands for enzyme-linked immunosorbent assay.

Turning to “SEQID-00218: nutritive polypeptide (GTIENLEEAKKKLLKDVEVLSQRLEEKALAYDKLEKTKTRLQQELDDLLVDLDHQ; listed as Bos taurus)”, the “ELISA 10 ml shake flask” value lay within 2.1 to 13.3 mg/L, the “ELISA 1st MTP” value lay within 28.2 to 69.3 mg/L and the “ELISA 2nd MTP” value lay in the range of 0.4 to 191.7 mg/L.

Regarding SEQID-00897, the “ELISA 10 ml shake flask” value was in the range of 0.6 to 2.2 mg/L, the “ELISA 1st MTP” value lay in the range of 11.9 to 21.4 mg/L and the “ELISA 2nd MTP” value lay within 3.6 to 17.5 mg/L.
